Test results taken from paper PMC5536023, “Recombinant Lipase from Gibberella zeae Exhibits Broad Substrate Specificity: A Comparative Study on Emulsified and Monomolecular Substrate” (2017).

Legend:
[1] = molecular target: T1, recombinant Gibberella zeae lipase (rGZEL) (Fusarium graminearum, UniProt Q6WER3); test: monomolecular film, zero-order trough; settings: 50 mM phosphate pH 6.0, room temperature, beta-cyclodextrin in subphase, surface pressure 30 mN/m
[2] = molecular target: T1, recombinant Gibberella zeae lipase (rGZEL); test: pH-stat hydrolysis of triglyceride emulsion; settings: pH 7.0, 30-40 °C

| SMILES | monomolecular film, zero-order trough [1] | pH-stat hydrolysis of triglyceride emulsion [2] |
| --- | --- | --- |
| CCCCCCCC/C=C\CCCCCCCC(=O)OC[C@H](COP(=O)([O-])OCC[N+](C)(C)C)OC(=O)CCCCCCC/C=C\CCCCCCCC | For DOPC, PE, PI, PA, and PG, maximum specific activities were found |  |
| CCCCCCCC(=O)OCC(COC(=O)CCCCCCC)OC(=O)CCCCCCC |  | Highest hydrolytic activity was found for TC8 |
